How the values were obtained:
His-tagged MshB = His-tagged MshB (Mycobacterium tuberculosis, UniProt P9WJN3); test: Inhibition of His-tagged MshB amidase reaction; type: biochemical, M. tuberculosis; details: 0.1 to 1 mM inhibitor, 0.55 mM MSmB
[1] = target: T1, M. tuberculosis MshB (Rv1170) (Mycobacterium tuberculosis, UniProt P9WJN3); test: Metal ion dependence of MshB deacetylase activity; details: for Deacetylase Specific Activity: 0.1 mM GlcNAc-Ins as substrate with 0.1 mM metal ion; for Activation of MshB apoenzyme, deacetylase reaction / Deacetylase Activity Relative rate: 0.1 mM metal ion; for Deacetylase Activity Relative rate: relative to apoenzyme, 0.1 mM GlcNAc-Ins
[2] = target: T1, M. tuberculosis MshB (Rv1170); test: Metal ion dependence of MshB amidase activity; details: for Amidase Specific Activity: 0.1 mM MSmB as substrate with 0.1 mM metal ion; for Activation of MshB apoenzyme, amidase reaction / Amidase Activity relative rate: 0.1 mM metal ion; for Amidase Activity relative rate: relative to apoenzyme, 0.1 mM MSmB
[3] = target: T1, M. tuberculosis MshB (Rv1170); test: Kinetics and substrate specificity of His-tagged MshB, deacetylase reaction; type: biochemical
Rv1170 = Rv1170 (Mycobacterium tuberculosis, UniProt P9WJN3); test: Deacetylase activity of crude extract from E. coli transformed with pYA1170b; type: biochemical, M. tuberculosis
[4] = system: deacetylase activity of M. smegmatis mc^2155 extract; test: Deacetylase activity (GlcN-Ins production) in centrifuged cell extracts, strain mc^2155; details: 100 μM GlcNAc-Ins added, undialyzed extract
[5] = deacetylase, Eadie-Hofstee plot

Sequences of proteins named here, by UniProt entry; tags and fusion partners are left off. A change or cut given only in a name is not applied to a line headed by its entry.
UniProt P9WJN3: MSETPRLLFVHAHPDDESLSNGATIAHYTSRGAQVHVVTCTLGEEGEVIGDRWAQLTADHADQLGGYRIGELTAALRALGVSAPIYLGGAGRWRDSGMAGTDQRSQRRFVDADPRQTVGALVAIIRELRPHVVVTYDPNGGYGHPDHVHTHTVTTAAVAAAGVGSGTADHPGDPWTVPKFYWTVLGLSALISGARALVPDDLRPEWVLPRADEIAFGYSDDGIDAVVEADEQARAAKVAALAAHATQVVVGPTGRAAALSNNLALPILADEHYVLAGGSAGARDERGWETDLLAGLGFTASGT

Substance | Deacetylase Specific Activity [1] | Activation of MshB apoenzyme, deacetylase reaction [1] | Deacetylase Activity Relative rate [1] | Amidase Specific Activity [2] | Activation of MshB apoenzyme, amidase reaction [2] | Amidase Activity relative rate [2] | also measured
1-D-myo-inosityl-2-amino-2-deoxy-α-D-glucopyranoside |  |  |  |  |  |  | Inhibition of the amidase activity (His-tagged MshB): lack of inhibition
CaCl2 | 34 ± 5 nmol/min/mg | not activated | 0.97 | 3.3 ± 0.1 nmol/min/mg | not activated | 0.97 | 
CdCl2 | 34 ± 2 nmol/min/mg | remained at the apoenzyme activity level | 0.97 | 21 ± 1.5 nmol/min/mg | enhanced to the level of Zn^2+ | 6.2 | 
CuSO4 | 32 ± 10 nmol/min/mg | not activated | 0.9 | 3.2 ± 0.1 nmol/min/mg | not activated | 0.94 | 
MgCl2 | 41 ± 4 nmol/min/mg | not activated | 1.2 | 3.5 ± 0.2 nmol/min/mg | not activated | 1.0 | 
MnCl2 | 69 ± 5 nmol/min/mg |  | 2.0 | 22 ± 0.7 nmol/min/mg |  | 6.5 | 
N-acetyl-1-D-myo-inosityl-2-amino-2-deoxy-α-D-glucopyranoside |  |  |  |  |  |  | Deacetylase Specific Activity ([3]; 0.1 mM substrate, 50 mM NaCl + 50 mM HEPES pH 7.4, 37° C., Zn^2+ form): 70 ± 3 nmol/min/mg; Km ([3]; deacetylase, 50 mM NaCl, 50 mM HEPES pH 7.5, 37° C., Eadie-Hofstee plot): 400 µM; Vmax [3, 5]: 470 nmol/min/mg; kcat [3, 5]: 0.25 s⁻¹; Relative Rate (deacetylase reaction) ([3]; relative to GlcNAc-Ins deacetylation, 0.1 mM substrate): 1.0; Deacetylase activity with GlcNAc-Ins, fold greater than amidase activity with MSMB (Rv1170): 23 fold; Deacetylase activity with GlcNAc-Ins, fold greater than deacetylase activity with GlcNAc (Rv1170): over 300 fold; Activity, deacetylase reaction (analysis for amine / deacetylase product) (Rv1170; compound as substrate, n = 3): 27 ± 2 nmol min^−1 mg of protein^−1; Rate of GlcN-Ins production [4]: 19.7±0.4 pmol min^−1 mg of protein^−1
NiCl2 | 62 ± 23 nmol/min/mg |  | 1.8 | 13 ± 0.7 nmol/min/mg |  | 3.8 | 
ZnCl2 | 81 ± 16 nmol/min/mg |  | 2.3 | 17 ± 0.7 nmol/min/mg |  | 5.0 | Inhibition by excess Zn^2+ ([1]; 0.1 mM): not inhibitory; Inhibition by excess Zn^2+ ([1]; 1 mM): only slightly inhibitory

From patent publication US20050124021A1 (priority 2000, published 2005)
